A mixed list of measured activities; the numbers were collected in NIAID ChemDB.

Common to all: host cell toxicity; cell line: MT-4; read-out: CC50

Blank or dashed fields: not listed here.

| compound | read by | result |
|---|---|---|
| Cc1cn([C@H]2C[C@H](N=[N+]=[N-])[C@@H](CO)O2)c(=O)[nH]c1=O | MTT | >100 µM |
| Cc1ccc2c(c1)C(=O)N(C(C)COC(=S)Nc1ccc(Cl)cc1)C2=O |  | >100 µM |
| Cc1nc2c(c(-c3ccccc3)c1C(OC(C)(C)C)C(=O)O)CCCC2 | ATP | >50 µM |
| COc1cc(Cc2cnc(/N=C3\C(=O)N(CN4CCN(c5cc6c(cc5F)c(=O)c(C(=O)O)cn6C5CC5)CC4)c4ccc(F)cc43)nc2N)cc(OC)c1OC | MTT | 141.6 µg/mL |
| CCn1cc(C(=O)O)c(=O)c2cc(F)c(N3CCN(CN4C(=O)C(=Nc5ccc(S(=O)(=O)Nc6ncnc(OC)c6OC)cc5)c5cc(Cl)ccc54)CC3)cc21 |  | 51.2 µg/mL |
| COc1cccc2c1nc(-c1ccccc1F)n2Cc1cccc(C(F)(F)F)c1 |  | 15 µg/mL |
| NC1=NS(=O)(=O)N(Cc2ccccc2)c2c1ncn2[C@@H]1CS[C@@H](CO)O1 |  | >100 µg/mL |
| COc1c(Cl)cc(C(=CCCCCN[C@@H]2CC[C@]3(C)C4CC[C@@]5(C)C(CC[C@@H]5C(C)CCCC(C)C)C4CC[C@H]3C2)c2cc(Cl)c(OC)c(C(=O)O)c2)cc1C(=O)O |  | >150 µM |
| CCn1cc(C(=O)O)c(=O)c2cc(F)c(N3CCN(CN4C(=O)C(=Nc5ccc(S(=O)(=O)Nc6ncnc(OC)c6OC)cc5)c5ccccc54)CC3)cc21 |  | 88.5 µg/mL |
| CC(C)CN(C[C@@H](O)[C@H](Cc1ccccc1)NC(=O)O[C@H]1CO[C@H]2OCC[C@H]21)S(=O)(=O)c1ccc2nc(N)sc2c1 | MTT | 85.11 µM |
| COc1cc(Cc2cnc(/N=C3\C(=O)N(CN4CCN(c5ccccc5)CC4)c4ccc(F)cc43)nc2N)cc(OC)c1OC | MTT | 84.7 µg/mL |
| COc1c(Cl)cc(C(=CCNC(=O)C[C@H]2CC[C@]3(C)C4CC[C@@]5(C)C(CC[C@@H]5CC(=O)NCC=C(c5cc(Cl)c(OC)c(C(=O)O)c5)c5cc(Cl)c(OC)c(C(=O)O)c5)C4CC[C@H]3C2)c2cc(Cl)c(OC)c(C(=O)O)c2)cc1C(=O)O |  | >125 µM |
| Cc1ccc2c(c1)C(=O)N(CCOC(=S)Nc1ccc(C)c(Cl)c1)C2=O |  | >100 µM |
| COC(=O)Cn1c(-c2ccccc2F)nc2c(OC)cccc21 |  | >60.6 µg/mL |
| Cc1ccc(C(C)C)c2oc(=O)c(C(=O)/C=C/c3ccc(O)cc3)c(O)c12 |  | 3.85 µg/mL |
| C=C(C)[C@@H]1CC[C@]2(C(=O)N[C@@H](CC(C)C)C(=O)O)CC[C@]3(C)[C@H](CC[C@@H]4[C@@]5(C)CC[C@H](OC(=O)CC(C)(C)C(=O)O)C(C)(C)[C@@H]5CC[C@]43C)[C@@H]12 |  | 12.2 µM |
| CCN1CCn2c(nc(C(=O)NCc3ccc(F)cc3)c(O)c2=O)C(N(C)C(=O)C(=O)N(C)C)C1 | microscopy | >1 µM |
| Cc1cc2oc(=O)c(C(=O)/C=C/c3ccc(O)cc3)c(O)c2cc1Cl |  | 2 µg/mL |
| COc1ccc(CCNC(=S)OCCNC(=O)c2ccccc2C(=O)O)cc1OC |  | >100 µM |
| CCn1cc(C(=O)O)c(=O)c2cc(F)c(N3CCN(CN4C(=O)/C(=N\c5ncc(Cc6cc(OC)c(OC)c(OC)c6)c(N)n5)c5cc(Cl)ccc54)CC3)cc21 |  | 57.6 µg/mL |
| C[C@]12CCC3C(CC[C@H]4C[C@@H](CC=C(c5cc(Cl)c(O)c(C(=O)O)c5)c5cc(Cl)c(O)c(C(=O)O)c5)CC[C@]34C)C1CC[C@@H]2CC=C(c1cc(Cl)c(O)c(C(=O)O)c1)c1cc(Cl)c(O)c(C(=O)O)c1 |  | 115 µM |
| Cc1cc(CN2CCn3c(nc(C(=O)NCc4ccc(F)cc4)c(O)c3=O)C2(C)C)on1 | microscopy | >1 µM |
| Cc1ccc(NC(=S)OCCN2C(=O)c3ccc(C)cc3C2=O)cc1 |  | >100 µM |
| NC1=NS(=O)(=O)N(Cc2ccccc2)c2c1ncn2[C@H]1CS[C@@H](CO)O1 |  | >100 µg/mL |
| COc1cc(Cc2cnc(/N=C3\C(=O)N(CN4CCN(Cc5ccccc5)CC4)c4ccc(F)cc43)nc2N)cc(OC)c1OC | MTT | 139.3 µg/mL |
| Nc1nc2c(ncn2COCCO)c(=O)[nH]1 | MTT | >555 µM |
| CC1(C)C(=O)CC[C@]2(C)[C@@H]1CC[C@@]13CC[C@@H](C[C@H]12)C([C@@H](O)CO)C3 | MTT | >20 µg/mL |
| NC1=NS(=O)(=O)N(Cc2ccccc2)c2ncn([C@H]3CS[C@@H](CO)O3)c21 |  | >100 µg/mL |
| CN(C)C(=O)C(=O)N(C)C1CN(S(C)(=O)=O)CCn2c1nc(C(=O)NCc1ccc(F)cc1)c(O)c2=O | microscopy | >1 µM |
| Cc1ccc2c(c1)C(=O)N(CCOC(=S)Nc1ccc(I)cc1)C2=O |  | >100 µM |
| CNc1nc2ccc(S(=O)(=O)N(CC(C)C)C[C@@H](O)[C@H](Cc3ccccc3)NC(=O)O[C@H]3CO[C@H]4OCC[C@H]43)cc2s1 | MTT | 70.79 µM |
| CC(C)(C)OC(C(=O)O)C1=C(c2ccc3c(c2)CCCO3)c2ccccc2OC1 | ATP | >50 µM |
| O=C(NCc1ccc(F)cc1)c1nc2n(c(=O)c1O)CCOCC2 | microscopy | >1 µM |
| COc1cccc2c1nc(-c1ccccc1F)n2Cc1ccc(C#N)cc1 |  | 25.3 µg/mL |
| COc1cc(Cc2cnc(/N=C3\C(=O)N(CN4CCN(c5cccc(Cl)c5)CC4)c4ccc(F)cc43)nc2N)cc(OC)c1OC | MTT | 121.6 µg/mL |
| CC(C)(C)OC(C(=O)O)c1c(-c2ccc3c(c2)CCCO3)ccc2ncccc12 | ATP | >50 µM |
| COc1cc(/C=C/C(=O)c2c(O)c3c(C)ccc(C(C)C)c3oc2=O)ccc1O |  | 15.11 µg/mL |
| Cc1ccc2c(c1)C(=O)N(CCOC(=S)Nc1ccc(Cl)c(C(F)(F)F)c1)C2=O |  | >100 µM |
| C=C(C)[C@@H]1CC[C@]2(C(=O)O)CC[C@]3(C)[C@H](CC[C@@H]4[C@@]5(C)CC[C@H](OC(=O)CC(C)(C)C(=O)O)C(C)(C)[C@@H]5CC[C@]43C)[C@@H]12 |  | >5 µM |
| CC(C)CN(C[C@@H](O)[C@H](Cc1ccccc1)NC(=O)OC1CCOC1)S(=O)(=O)c1ccc2nc(N)sc2c1 | MTT | <100 µM |
| COc1c(O)cc2ccc(=O)oc2c1-c1c(O)ccc2ccc(=O)oc12 | MTT | 54 µM |
| Cn1nnnc1CN1CCn2c(nc(C(=O)NCc3ccc(F)cc3)c(O)c2=O)C1(C)C | microscopy | >1 µM |
| COc1cc(Cc2cnc(/N=C3\C(=O)N(CN4CCN(c5c(F)cc6c(=O)c(C(=O)O)cn(C7CC7)c6c5OC)CC4C)c4ccc(F)cc43)nc2N)cc(OC)c1OC | MTT | 91.6 µg/mL |
| CCn1cc(C(=O)O)c(=O)c2cc(F)c(N3CCN(CN4C(=O)C(=Nc5ccc(S(=O)(=O)Nc6ncccn6)cc5)c5ccccc54)CC3)cc21 |  | 48.5 µg/mL |
| C[C@]12CCC3C(CC[C@H]4C[C@@H](CCC=C(c5cc(Cl)c(O)c(C(=O)O)c5)c5cc(Cl)c(O)c(C(=O)O)c5)CC[C@]34C)C1CC[C@@H]2CCC=C(c1cc(Cl)c(O)c(C(=O)O)c1)c1cc(Cl)c(O)c(C(=O)O)c1 |  | >125 µM |

6 of the rows above, restated:

compound,read by,result
COc1cc(Cc2cnc(/N=C3\C(=O)N(CN4CCN(c5ccccc5)CC4)c4ccc(F)cc43)nc2N)cc(OC)c1OC,MTT,84.7 µg/mL
CCn1cc(C(=O)O)c(=O)c2cc(F)c(N3CCN(CN4C(=O)/C(=N\c5ncc(Cc6cc(OC)c(OC)c(OC)c6)c(N)n5)c5cc(Cl)ccc54)CC3)cc21,,57.6 µg/mL
COc1c(Cl)cc(C(=CCCCCN[C@@H]2CC[C@]3(C)C4CC[C@@]5(C)C(CC[C@@H]5C(C)CCCC(C)C)C4CC[C@H]3C2)c2cc(Cl)c(OC)c(C(=O)O)c2)cc1C(=O)O,,>150 µM
C=C(C)[C@@H]1CC[C@]2(C(=O)O)CC[C@]3(C)[C@H](CC[C@@H]4[C@@]5(C)CC[C@H](OC(=O)CC(C)(C)C(=O)O)C(C)(C)[C@@H]5CC[C@]43C)[C@@H]12,,>5 µM
Cc1nc2c(c(-c3ccccc3)c1C(OC(C)(C)C)C(=O)O)CCCC2,ATP,>50 µM
COc1cc(Cc2cnc(/N=C3\C(=O)N(CN4CCN(c5cc6c(cc5F)c(=O)c(C(=O)O)cn6C5CC5)CC4)c4ccc(F)cc43)nc2N)cc(OC)c1OC,MTT,141.6 µg/mL

Rows are shuffled and stem from different studies. CCn is the concentration with n% toxicity to the cells.